# In paper PMC5920107, “Self-homodimerization of an actinoporin by disulfide bridging reveals implications for their structure and pore formation” (Scientific Reports, 2018):
# Target: the molecule itself
protein,measurement,value
sticholysin I Trp111 to Cys mutant (StI W111C) (natural protein) SELAGTIIDGASLTFQVLDKVLGELGKVSRKIAVGIDNESGGTWTALNAYFRSGTTDVILPEVVPNTKALLYSGRKSSGPVATGAVAAFAYYMSNGNTLGVMFSVPFDYNCYSNWWDVKIYPGKRRADQGMYEDMYYGNPYRGDNGWYQKNLGYGLRMKGIMTSAGEAKMQIKISR,stoichiometry N,2
